Test results taken from patent EP3858345B1, “RADIOTRACER DERIVATIVES OF TRIMETHOPRIM FOR DIAGNOSTIC IMAGING” (dated 2026).

Tested on: Live bacteria (E. coli, 1 x 10^8 CFU)
Assay: Infection v inflammation imaging in mice

Molecule	uptake in turpentine inflammation (30 µL of turpentine in left leg 3 days prior to imaging)	uptake in live bacteria (E. coli subcutaneously in right leg, PET imaging)	uptake for bacteria versus turpentine inflammation (injected the day after [^18F]FPTMP)
[^18F]Fluoropropyltrimethoprim	not in turpentine inflammation	observed	
OC[C@H]1OC(O)[C@H](F)[C@@H](O)[C@@H]1O (stereo partly drawn)			no difference
